Measured values from several laboratories, pooled; numbers as filed in NIAID ChemDB.

Common to all: whole-cell or culture tests; organism: Cryptococcus neoformans

Blank or dashed fields: not listed here. ECn: concentration that inhibits the pathogen or its effect by n%. Conditions beyond the fields shown may differ between rows. MIC50, MIC90 and the like: level of inhibition, or share of isolates inhibited.

smiles	strain or isolate	method	read-out	value
CCCCCCCCCC(=O)NC(CCCN)C(=O)NC(CCCN)C(=O)NC(CCCN)C(=O)NC(CCCN)C(=O)NC(CCCN)C(N)=O	ATCC 2344	broth dilution	MIC	>100 µg/mL
CC(C)(C)CSc1cc(=S)ss1	ATCC 32264	-	MIC	6.25 µg/mL
NC(=O)c1cc[n+](CCCC[n+]2ccccc2/C=N/O)cc1.[Br-].[Br-]	-	broth dilution	EC50	>20 µg/mL
CCN1CCC(O)(/C=C/c2ccc(Cl)cc2)C(C(=O)/C=C/c2ccc(Cl)cc2)C1	15 strains	-	MFC	2 µg/mL
C[C@@H](n1ncn(-c2ccc(OCC(F)(F)C(F)F)cc2)c1=O)[C@](O)(Cn1cncn1)c1ccc(F)cc1F	DUMC 114.96	-	MFC	2 µg/mL
Cc1nc(NCCCCNc2ccnc3cc(Cl)ccc23)nc(-c2ccccc2[N+](=O)[O-])c1C(=O)OC(C)C	WP	-	MIC99	8 µg/mL
CCCCCCCC/C=C/CCCCCCCCC(=O)Oc1c(OC)cc2ccnc3c2c1N(C)C=C3	-	-	EC50	>15 µg/mL
Oc1ccccc1N=Cc1cccc(O)c1O	LMM 820	broth dilution	MIC	4 µg/mL
CCC(C)CC(C)CCCCCCCCC(=O)N[C@H]1C[C@@H](O)[C@H](NCCN)NC(=O)[C@@H]2[C@@H](O)CCN2C(=O)[C@H]([C@H](O)CCN)NC(=O)[C@H]([C@H](O)[C@@H](O)c2ccc(O)cc2)NC(=O)[C@@H]2C[C@@H](O)CN2C(=O)[C@H]([C@@H](C)O)NC1=O	15 strains	-	MIC50	>8 µg/mL
N#CC(CC(=O)O)C(N)C(=O)O	D49	-	MIC	>100 µg/mL
Oc1ccccc1N=Cc1ccc2c(c1)OCO2	LMM 820	broth dilution	MIC	4 µg/mL
CCCCc1ccc(C(=O)Oc2c(OC)cc3ccnc4c3c2N(C)C=C4)cc1	-	-	EC50	1.5 µg/mL
Clc1ccc(C(CCc2ccccc2)Cn2ccnc2)c(Cl)c1	-	-	MIC	<1 µg/mL
COc1c(C(=O)/C=C(\O)c2ccccc2)ccc2sccc12	-	-	MIC	>50 µg/mL
Fc1ccc2[nH+]c3c4ccccc4n(CCCCCC4CCCCC4)c3cc2c1	ATCC 90113	-	EC50	>50 µg/mL
CCCSc1cc(=S)ss1	ATCC 32264	-	MIC	12.5 µg/mL
c1ccc(CCCCC[n+]2c3ccccc3cc3[nH]c4ccccc4c32)cc1	ATCC 90113	-	EC50	1.3 µg/mL
COc1c(-c2ccccc2)oc2c(ccc3sccc32)c1=O	-	-	MIC	12.5 µg/mL
CCCCCCCCCCSc1cc(=S)ss1	ATCC 32264	-	MIC	125 µg/mL
CCCCCCCCCCCCCCCCCC(=O)NC(CCCN)C(=O)NC(CCCN)C(N)=O	ATCC 2344	broth dilution	MIC	25 µg/mL
S=c1cc(SCC2CCCC2)ss1	ATCC 32264	-	MIC	50 µg/mL
Cc1ccccc1C(Cc1ccc(Cl)cc1)Cn1ccnc1	-	-	MIC	10 µg/mL
CCCCCCCCCC#CCCC#CC(=O)O	ATCC66031	-	MIC	<5.7 µM
N#Cc1ccc2[nH+]c3c4ccccc4n(CCCCCC4CCCCC4)c3cc2c1	ATCC 90113	-	EC50	>50 µg/mL
S=c1cc(Sc2ccccc2)ss1	ATCC 32264	-	MIC	6.25 µg/mL
O=C(/C=C/c1ccccc1)c1ccc2sccc2c1O	-	-	MIC	25 µg/mL
Clc1ccc(C(Cc2ccc(Cl)cc2Cl)Cn2ccnc2)cc1	-	-	MIC	<1 µg/mL
CCCCCc1ccc(C(=O)Oc2c(OC)cc3ccnc4c3c2N(C)C=C4)cc1	-	-	EC50	3 µg/mL
CCOC(=O)c1c(C)nc(OCCCNc2ccnc3cc(Cl)ccc23)nc1-c1ccccc1	ATCC 28957	-	MIC99	1.4 µg/mL
CCCCCCCCOc1ccc(C(=O)NC2C[C@@H](O)[C@@H](O)NC(=O)C3[C@@H](O)[C@@H](C)CN3C(=O)C(C(C)O)NC(=O)C([C@H](O)[C@@H](O)c3ccc(O)cc3)NC(=O)C3C[C@@H](O)CN3C(=O)C(C(C)O)NC2=O)cc1	-	-	MIC	64 µg/mL
CCNC(=S)N/N=C(\N)c1ccccn1	ATCC 24067D2	-	MIC100	>416.7 µM
COc1cc2ccnc3c2c(c1O)N(C)C=C3	-	-	EC50	>15 µg/mL
C=C1C(=O)OCC1COC(=O)CCCC(C)C	ATCC90112	-	MIC	12.5 µg/mL
CC(=O)C1CCc2sccc2C1=O	-	-	MIC	25 µg/mL
Clc1ccc(C(Cn2ccnc2)OCc2cccc3ccccc23)c(Cl)c1	-	-	MIC	>128 µg/mL
COc1cc2ccnc3c2c(c1OC(=O)c1ccc(OC(F)(F)F)cc1)N(C)C=C3	-	-	MIC	10 µg/mL
C[C@H]1[C@H](O)[C@@H](C)/C=C/C=C/C=C/C=C/C=C/C=C/C=C/[C@H](O[C@@H]2O[C@H](C)[C@@H](O)[C@H](N)[C@@H]2O)C[C@@H]2O[C@](O)(C[C@@H](O)C[C@@H](O)CC[C@H](O)[C@@H](O)C[C@@H](O)CC(=O)O[C@H]1C)C[C@H](O)[C@H]2C(=O)O	2867E	-	MIC	0.13 µg/mL
O=c1c(O)c(-c2ccccc2)oc2c1ccc1sccc12	-	-	MIC	25 µg/mL
COc1ccc2c(c1OC)CN1CCc3cc4c(cc3C1=C2)OCO4	ATCC 36556	-	MIC	64 µg/mL
Clc1ccc(C(Cn2ccnc2)OC/C=C/c2ccccc2)c(Cl)c1	-	-	MIC	>128 µg/mL
CCCCCCCC(=O)NC(CCCN)C(=O)NC(CCCN)C(=O)NC(CCCN)C(=O)NC(CCCN)C(=O)NC(CCCN)C(N)=O	ATCC 2344	broth dilution	MIC	>100 µg/mL
CCc1ccc(C(=O)Oc2c(OC)cc3ccnc4c3c2N(C)C=C4)cc1	-	-	EC50	5.5 µg/mL
Cn1c2ccccc2c2nc3ccc(Br)cc3cc21	ATCC 90113	-	EC50	11 µg/mL
Clc1ccccc1CC(Cn1ccnc1)c1ccccc1Cl	-	-	MIC	<1 µg/mL
NC(=O)c1cc[n+](Cc2ccc(C[n+]3ccc(/C=N/O)cc3)s2)cc1.[Cl-].[Cl-]	-	broth dilution	EC50	>20 µg/mL
Oc1cccc(C=Nc2ccccc2O)c1	C-3-1	-	MIC99	2.8 µg/mL
OC(c1cc(-c2ccc(-c3ccccc3)cc2)nc2ccccc12)C1CCCCN1	ATCC 90013	-	MIC	1.5 µg/mL
COc1cc2ccnc3c2c(c1OC(=O)c1ccc(C(C)(C)C)cc1)N(C)C=C3	-	-	MIC	2.5 µg/mL
O=c1cc(CO)occ1O	CN24	-	MIC99	>12800 µM
CCCCCCCCCCCCCCCCCC(=O)NC(CCCN)C(=O)NC(CCCN)C(=O)NC(CCCN)C(N)=O	ATCC 2344	broth dilution	MIC	6.25 µg/mL
COc1ccc(/C=C/C(=O)c2ccc3c(ccn3C)c2O)cc1	-	-	MIC	25 µg/mL
Oc1ccccc1C=Nc1ccccc1O	F-10	broth dilution	MIC	4 µg/mL
CN[C@H]1CC[C@@H](c2ccc(Cl)c(Cl)c2)c2ccccc21	92BC1-86	broth dilution	MFC	8 µg/mL
ON=Cc1ccc[n+](Cc2csc3ccccc23)c1.[Cl-]	-	broth dilution	EC50	>20 µg/mL
OC(c1cc(-c2ccc(Cl)cc2)nc2c1ccc1ccccc12)C1CCCCN1	ATCC90112	-	MIC	0.8 µg/mL
O/N=C/c1ccc[n+](Cc2ccc(C[n+]3cccc(/C=N/O)c3)s2)c1.[Cl-].[Cl-]	-	broth dilution	EC50	>20 µg/mL
CCSc1ssc(=S)c1OC	ATCC 32264	-	MIC	50 µg/mL
Clc1ccc(C(Cc2ccc(Br)cc2)Cn2ccnc2)c(Cl)c1	-	-	MIC	<1 µg/mL
CCC(C)CC(C)CCCCCCCCC(=O)N[C@H]1C[C@@H](O)[C@H](NCCN)NC(=O)[C@@H]2[C@@H](O)CCN2C(=O)[C@H]([C@H](O)CCN)NC(=O)[C@H]([C@H](O)[C@@H](O)c2ccc(O)cc2)NC(=O)[C@@H]2C[C@@H](O)CN2C(=O)[C@H]([C@@H](C)O)NC1=O	10 strains	-	MIC90	>16 µg/mL
CCCCCCCCCCCCCCCC(=O)NC1CC(O)C(O)NC(=O)C2C(O)C(CO)CN2C(=O)C(CCC(N)=O)NC(=O)C(C(O)C(O)c2ccc(O)cc2)NC(=O)C2CC(O)CN2C(=O)C(C(C)O)NC1=O	-	-	MIC	>20 µg/mL
Oc1ccccc1N=Cc1ccc(F)cc1	F-10	broth dilution	MIC	8 µg/mL
Clc1ccc(C(Cn2ccnc2)OCc2ccc(-c3ccccc3)cc2)c(Cl)c1	-	-	MIC	>128 µg/mL
CCCCCCCCCCCC(=O)NC(CCCN)C(=O)NC(CCCN)C(=O)NC(CCCN)C(=O)NC(CCCN)C(=O)NC(CCCN)C(N)=O	ATCC 2344	broth dilution	MIC	25 µg/mL
COC(=O)c1ccc2c(ccn2C)c1O	-	-	MIC	50 µg/mL
CC(C)(C)c1ccc(COC(Cn2ccnc2)c2ccc(Cl)cc2)cc1	-	-	MIC	128 µg/mL
Cn1c2ccccc2c2c1cc1ccccc1[n+]2C	ATCC 90113	-	EC50	6.3 µg/mL